Test results: publication PMC9491098, “Discovery of novel drug-like antitubercular hits targeting the MEP pathway enzyme DXPS by strategic application of ligand-based virtual screening” (Chemical Science, 2022)

Amino acid sequences for entries named in this document (tags omitted).
UniProt P9WNS3, whole entry: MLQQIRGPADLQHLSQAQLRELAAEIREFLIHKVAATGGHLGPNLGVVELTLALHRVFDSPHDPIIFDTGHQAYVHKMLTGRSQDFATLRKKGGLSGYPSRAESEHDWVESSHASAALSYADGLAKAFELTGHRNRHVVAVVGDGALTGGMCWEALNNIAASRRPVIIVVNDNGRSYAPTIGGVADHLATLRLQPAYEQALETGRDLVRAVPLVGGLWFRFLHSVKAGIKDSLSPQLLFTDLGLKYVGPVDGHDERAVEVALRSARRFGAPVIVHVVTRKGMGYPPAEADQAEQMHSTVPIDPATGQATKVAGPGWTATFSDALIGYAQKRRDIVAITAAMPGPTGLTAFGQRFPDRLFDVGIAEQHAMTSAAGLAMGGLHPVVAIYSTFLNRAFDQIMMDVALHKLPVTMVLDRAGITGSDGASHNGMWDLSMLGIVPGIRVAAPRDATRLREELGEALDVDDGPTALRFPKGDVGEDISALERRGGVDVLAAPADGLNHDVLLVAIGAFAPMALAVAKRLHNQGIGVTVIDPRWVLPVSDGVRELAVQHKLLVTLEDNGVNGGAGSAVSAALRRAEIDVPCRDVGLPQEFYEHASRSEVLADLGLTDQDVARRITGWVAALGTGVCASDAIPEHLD

Target: MtDXPS (Mycobacterium tuberculosis, UniProt P9WNS3)
Experiment: tight-binding Morrison Ki* determination against MtDXPS (Dynafit)
Assay type: biochemical
Conditions: Table 1B, oxime derivatives

In the case of `O/N=C(\Cc1ccc(Cl)cc1)c1ccccc1`, the Ki is reported as 1100 nM.

Structures were worked out from names or drawings and are uncertain.
